The text below walks through data of patent US9045563B2, “CXC chemokine receptor 4 (CXCR4) antagonistic polypeptide” (priority 2007, dated 2015).

Where two headings read alike, the source gives them in different places. A value given as a limit tells only on which side of the number the result lay.

This assay concerns X4 tropic HIV-1 NL4-3. The settings on record: TZM-bl cells. The method, then: HIV inhibition test were performed by seeding 4000 P4-R5 MAGI cells (P. Charneau et al., J. Mol. Biol. 241: 651, 1994) in 100 μl of DMEM (10% FCS, 100 U/ml penicillin G, and 100 μg/ml streptomycin sulfate). P4-R5 cells are stably transfected with an LTR-lacZ cassette and upon successful infection by HIV-1 will express—galactosidase in a Tat-dependent manner, which can be detected in a chemiluminescence test. On the following day, aliquots of the fractions were added. Therefor the lyophilized fractions were resuspended in 80 μl of DMEM, and 25 μl each thereof was pipetted to P4-R5 cells, incubated at 37° C. for 1 hour and subsequently infected with HIV-1 NL4—3 (1 ng of p24 antigen). Virus stocks were obtained by transient infection of 293T cells with proviral DNA by the calcium phosphate method (CalPhos™ Mammalian Transfection Kit, Clontech). Virus stocks were harvested 48 hours post transfection, filtrated and used for infection. Three days post infection, β-galactosidase activity in infected P4-R5 cells was detected using GalScreen assay (TROPIX) as recommended by the manufacturer. Briefly, supernatant was removed, 40 μl of a 1:1 dilution of PBS/GalScreen+substrate was added, followed by incubation at room temperature for 30 min. Then 30 μl of the lysates were transferred into 96 well lumiplates. Subsequently, the lumines-cence was detected as relative light units per second in a luminometer (Berthold, ORION). From all measurements, the mean β-galactosidase background activity of non-infected control cells was subtracted. % infection values for each infection were calculated relative to no peptide containing controls (100%). […]
1.6 mg of fraction 31 from the 7th step in Example 1 was dissolved in 160 μl of DMEM. […] Three days later, infection rates were determined in a GalScreen assay (see Example 1). […]
Table 1. […] TZM-bl cells containing serial dilutions of synthetic peptides were infected with HIV-1 NL4-3 and infection rates were determined and calculated as described in example 1 and 2 at two days post infection. IC50 values were determined using the GraphPad Prism software package. […]

What is called IC50 is the concentration needed to halve the response being measured. Consider `CC(C)C[C@H](NC(=O)[C@@H](NC(=O)[C@@H]1CCCN1C(=O)[C@@H](NC(=O)[C@H](CO)NC(=O)[C@@H](NC(=O)[C@H](CCC(N)=O)NC(=O)[C@@H]1CCCN1C(=O)[C@@H](NC(=O)[C@H](CCCCN)NC(=O)[C@H](CCCCN)NC(=O)[C@@H](NC(=O)[C@H](Cc1ccc(O)cc1)NC(=O)[C@H](CCCNC(=N)N)NC(=O)[C@@H](N)C(C)C)[C@@H](C)O)C(C)C)C(C)C)[C@@H](C)O)[C@@H](C)O)C(=O)O` [ALB409-423, VRYTKKVPQVSTPTL], for which the “antiviral activity against X4 tropic HIV-1 NL4-3 (words, SAR study)” value was “inactive”. Also, the “antiviral activity against X4 tropic HIV-1 NL4-3 (words, SAR study)” value (listed as 409-423) is on record as “severely impaired or abrogated antiviral activity”. Moreover, where the note is “read-out: IC50 ± SEM, X4 tropic HIV-1 NL4-3, two days post infection, synthetic peptides”, the IC50 was more than 100 µM.
